The values that follow come from paper PMC8489083.

The series concerns ArcA-P (phosphorylated ArcA-His6). In words: EMSA. The settings on record: 0-2.0 ug, residues 1-238, probe letters rebuilt from the primers and the genome. A general note: A gel shift assay detects complexes by their altered migration in electrophoresis.

The exact form of at least one protein or probe is not confirmed.

As to “CGTACTTCCCGGCTAAGCCGGGAGCTCATCGCTTTTCAGTATGATATTACGTTATAAACGGAACTGGTCACCCAGATATACCCGTTTAACATGTTCATTTTCCAGAATCTCTGCCGGAGTCCCATGTGCGATCATATGTCCTTGACTTACGATGTAGGCATGCTCGCACACATCCAACGTTTCCCGCACATTGTGGTCGGTGATCAGAACGCCCAGCCCGCTATCACGCAGGTGTTTAATGATGTTCTTAATGTCGATAACCGAAATCGGGTCTACGCCGGCAAAAGGCTCATCCAGCAGGATAAATTTAGGATTGGCGGCTAGGGCGCGGGCAATTTCTACTCGGCGAC (double strand) [rpoN promoter]”, the binding result (10 mM MgCl2, EMSA: 50 ng DNA, 100 mM Tris-HCl pH 7.5, 10 mM MgCl2, 2 mM DTT, 100 mM KCl, 10% glycerol, 30 min at 37 C, 6% PAGE in 0.5x TBE, GelRed stain, recombinant protein) was “binds”.

Turning to “GGTAATAGTTTGCCGTCCCGGTAAGGTGGTTTCCAAATCGGTAGCACAGCGTTCAAATTTGAGCCGTGGATCGAGCGGCGTAACCCTAACTTGATGCTGGAGCGTGTTTTCTGACGGTAACTGGCTGATCACAAAGGATTCTGCGGCTTGCGTAATGCTCGACGGCTCCTGATAGGTCGGTTCAGCATTGGCGGCCATGCCATTTTCGTTTAAGAAAAGGCAGAATATGCCGATAAACAAACCAATAGGGCGAGTCGCCTTGGACACTGGCGTTGAGAAAAACACAAAACGTCTCCTGTTATGCAAAATACCTCTGATATCCTAAGGGGTATACGAGTTATAAGAAACACTTTAAATACCCCTGGGAGTAGCACGTTA (double strand) [cheV promoter]”, for the setting “10 mM MgCl2, recombinant protein”, the binding result was “binds”.
